Pooled drug test results. Numbers come from NIAID ChemDB, via PubChem.

All rows: growth or infection tests; organism: Varicella zoster virus; read by: cytopathic effect; endpoint: EC50

Neighbouring rows are from separate reports.

NC1=NC2C(C=CN2CC(CO)CCO)C(=O)N1 ; cell line: HEL ; strain: 07/1 (TK-) ; result: 4.6 µg/mL
CC1(C)[C@@H](CO)CC[C@@]1(C)Cn1cnc2c(=O)[nH]cnc21 ; cell line: HEL ; strain: YS ; result: >50 µg/mL
Cc1cn(CC[C@H](O)CCO)c(=O)[nH]c1=O ; cell line: HEL ; strain: YS ; result: >400 µg/mL
Nc1nc2c(ncn2CCCC(O)CF)c(=O)[nH]1 ; cell line: HEL ; strain: OKA ; result: >50 µg/mL
Nc1ncnc2nn(C[C@@H](CO)OCP(=O)(O)O)nc12 ; cell line: HEL ; strain: OKA (TK+) ; result: >100 µg/mL
Nc1ncnc2c1ncn2C[C@H](O)CO ; cell line: HEL ; strain: YS/R (TK-) ; result: 200 µg/mL
CC1(C)[C@@H](CO)CC[C@@]1(C)Cn1nnc2c(Cl)ncnc21 ; cell line: HEL ; strain: 07/1 (TK-) ; result: >50 µg/mL
O=c1[nH]c(=O)n([C@@H]2O[C@H](CO)[C@@H](O)[C@@H]2O)cc1/C=C/Br ; cell line: HEL ; strain: Oka CF1368-resistant ; result: ≥35.5 µM
Cc1cn([C@H]2C/C(=N\O)[C@@H](CO)O2)c(=O)[nH]c1=O ; cell line: HEL ; strain: OKA ; result: >200 µg/mL
O=c1nc2oc(-c3ccc(Br)cc3)cc2cn1[C@H]1C[C@H](O)[C@@H](CO)O1 ; cell line: HEL ; strain: 07/1 (TK-) ; result: >50 µM
Nc1nc(N)c2ncn(CCOCP(=O)(O)O)c2n1 ; cell line: HEL ; strain: Oka CF1743-resistant ; result: 1.3 µM
COc1ncnc2c1ncn2[C@@H]1O[C@H](CO)[C@@H](O)[C@@H]1O ; cell line: MRC-5 ; strain: TK- ; result: >100 µM
Nc1ncnc2c1ncn2CC[C@H](O)CCO ; cell line: HEL ; strain: 07/1 (TK-) ; result: >400 µg/mL
Nc1ncnc2c1ncn2CCCC(O)CF ; cell line: HEL ; strain: YS/R (TK-) ; result: >50 µg/mL
C[C@H](Cn1nc2nc(N)[nH]c(=O)c2n1)OCP(=O)(O)O ; cell line: HEL ; strain: OKA (TK+) ; result: >20 µg/mL
COC(=O)[C@H](C)NP(=O)(OC[C@H]1O[C@@H](n2cc(/C=C/Br)c(=O)[nH]c2=O)C[C@@H]1O)Oc1ccccc1 ; cell line: HEL ; strain: YS ; result: 0.26 µM
O=c1[nH]c(=O)n([C@H]2C[C@H](O)[C@@H](CO)O2)cc1I ; cell line: HEF ; strain: VEX411 ; result: 0.4 µg/mL
CO[C@H](CO)[C@@H](O)CCn1ccc(N)nc1=O ; cell line: HEL ; strain: OKA ; result: >400 µg/mL
C[C@H](Cn1nc2ncnc(N)c2n1)OCP(=O)(O)O ; cell line: HEL ; strain: YS/R (TK-) ; result: 5 µg/mL
Nc1nc(Cl)c2ncn([C@@H](CCO)SCCO)c2n1 ; cell line: HFF ; result: 131 µM
Nc1nc2c(ncn2[C@@H]2C=C[C@H](CO)[C@@H](O)C2)c(=O)[nH]1 ; cell line: E6SM ; strain: YS ; result: 0.49 µg/mL
CC[C@H](O)C1=C[C@@H](n2cnc3c(N)ncnc32)[C@H](O)[C@@H]1O ; cell line: HEL ; strain: 07/1 YS/R (TK-) ; result: >50 µg/mL
Nc1nc2c(ncn2CCC(CO)CO)c(=O)[nH]1 ; cell line: HEL ; strain: Clinical isolate VZV-30 ; result: 4.61 µM
O=c1[nH]c(=O)n([C@H]2C[C@H](O)[C@@H](CO)O2)cc1/C=C/Br ; cell line: HEL ; strain: YS ; result: 0.006 µg/mL
Nc1ncnc2c1ncn2[C@@H]1C=C(CO)[C@@H](O)[C@H]1O ; cell line: HEL ; strain: 07/1 YS/R (TK-) ; result: >20 µg/mL
CC1(C)[C@@H](CO)CC[C@@]1(C)Cn1cc(Br)c(=O)[nH]c1=O ; cell line: HEL ; strain: YS ; result: >50 µg/mL
CCCCCCCC/C=C/CCCCCCCC(=O)O ; cell line: HEL ; strain: 07/1 (TK-) ; result: >100 µM
COc1ccc(-c2cc3cn([C@H]4C[C@H](O)[C@@H](CO)O4)c(=O)nc3o2)cc1 ; cell line: HEL ; strain: YS/R (TK-) ; result: >50 µM
Nc1nc2c(ncn2COC(CO)CO)c(=O)[nH]1 ; result: 0.5 µg/mL
CC(C)CS[C@@H]1C=C[C@H](n2cnc3c(N)ncnc32)C1 ; cell line: HEL ; strain: YS ; result: >20 µg/mL
Nc1ncnc2c1ncn2[C@@H]1C=C(CO)[C@@H](O)[C@H]1O ; cell line: HEL ; strain: OKA YS ; result: 10 µg/mL
CCCOc1ccc(-c2cc3cn([C@H]4C[C@H](O)[C@@H](CO)O4)c(=O)nc3o2)cc1 ; cell line: HEL ; strain: YS ; result: <0.5 µM
CCCCCCCC/C=C/CCCCCCCC(=O)OCC(CO)OCn1cnc2c(=O)[nH]c(N)nc21 ; cell line: HEL ; strain: YS/R (TK-) ; result: 38 µM
Nc1nc(=O)n([C@H]2C[C@H](O)[C@@H](CO)O2)cc1I ; cell line: HEF ; strain: VEX411 ; result: 0.4 µg/mL
Nc1ccn(C[C@@H](CO)OCP(=O)(O)O)c(=O)n1 ; cell line: HEL ; strain: OKA ; result: 0.38 µM
C[C@H](Cn1nnc2c(N)ncnc21)OCP(=O)(O)O ; cell line: HEL ; strain: OKA (TK+) ; result: 8 µg/mL
CCCc1cn([C@H]2C[C@H](O)[C@@H](CO)O2)c(=O)[nH]c1=O ; cell line: HEF ; strain: VEX411 ; result: 1 µg/mL
C#C[C@H](O)C1=C[C@@H](n2cnc3c(N)ncnc32)[C@H](O)[C@@H]1O ; cell line: HEL ; strain: 07/1 YS/R (TK-) ; result: >50 µg/mL
Nc1nc2nn(CCOCP(=O)(O)O)nc2c(=O)[nH]1 ; cell line: HEL ; strain: YS/R (TK-) ; result: 40 µg/mL
O=c1[nH]c(=O)n([C@H]2C[C@H](O)[C@@H](CO)O2)cc1/C=C/Br ; cell line: HEL ; strain: 07 (TK-) ; result: >150 µM
CO[C@H](CO)[C@@H](O)CCn1cnc2c(N)ncnc21 ; cell line: HEL ; strain: OKA ; result: >400 µg/mL
Nc1ccn(C[C@@H](CO)OCP(=O)(O)O)c(=O)n1 ; cell line: HEL ; strain: Oka CF1603-resistant ; result: 0.15 µM
CCCCCOc1ccc(-c2cc3cn([C@H]4C[C@H](O)[C@@H](CO)O4)c(=O)nc3o2)cc1 ; cell line: HEL ; strain: YS/R (TK-) ; result: >50 µM
Nc1nc2c(ncn2[C@H]2C=C[C@@H](CO)[C@H](O)C2)c(=O)[nH]1 ; cell line: E6SM ; strain: OKA ; result: 1.9 µg/mL
Cc1cn(C(CF)CCCO)c(=O)[nH]c1=O ; cell line: HEL ; strain: YS ; result: >50 µg/mL
CCCCCC[C@@H]([C@H](C)O)n1cnc2c(N)ncnc21 ; cell line: HEF ; strain: VEX411 ; result: 30 µg/mL
Nc1nc2c(ncn2[C@@H](CCO)OCCO)c(=O)[nH]1 ; cell line: HFF ; result: >200 µM
Nc1nc2c(ncn2COC(CO)CO)c(=O)[nH]1 ; cell line: HEL ; strain: Oka CF1603-resistant ; result: 9.1 µM
Nc1nc(Cl)c2ncn([C@@H](CCO)OCCO)c2n1 ; cell line: HFF ; result: 90 µM
CC1(C)[C@@H](CO)CC[C@@]1(C)Cn1nnc2c(N)ncnc21 ; cell line: HEL ; strain: YS/R (TK-) ; result: >50 µg/mL

For reference, 6 entries again:

compound,cell line,strain,result
CC1(C)[C@@H](CO)CC[C@@]1(C)Cn1nnc2c(Cl)ncnc21,HEL,07/1 (TK-),>50 µg/mL
Nc1nc2c(ncn2[C@H]2C=C[C@@H](CO)[C@H](O)C2)c(=O)[nH]1,E6SM,OKA,1.9 µg/mL
O=c1[nH]c(=O)n([C@@H]2O[C@H](CO)[C@@H](O)[C@@H]2O)cc1/C=C/Br,HEL,Oka CF1368-resistant,≥35.5 µM
Cc1cn(C(CF)CCCO)c(=O)[nH]c1=O,HEL,YS,>50 µg/mL
Nc1nc2c(ncn2COC(CO)CO)c(=O)[nH]1,HEL,Oka CF1603-resistant,9.1 µM
Nc1ncnc2c1ncn2C[C@H](O)CO,HEL,YS/R (TK-),200 µg/mL

ECn: concentration that inhibits the pathogen or its effect by n%.